Here are results for one molecule from patent publication US12440498B2 (priority 2020, dated 2025).

This assay relates to A/H1N1 WT virus. The assay can be described thus: Successive cell passages of A/H1N1 WT virus in MDCK cells under antiviral selection pressure. As to conditions: diltiazem 25 μM over 10 passages; baloxavir arm and combination arm until the 6th cell passage.

In the case of `O=C1c2c(O)c(=O)ccn2N([C@@H]2c3ccccc3SCc3c2ccc(F)c3F)[C@@H]2COCCN12` [baloxavir, baloxavir acid], the “limiting dilution used for each cell passage (significant cytopathic effects observed)” value is 10^−5.
